Compound potency records, mixed from different reports. Data source: NIAID ChemDB in PubChem.

Shared fields: whole-cell or culture tests; agent: HIV-1; read-out: EC50

ECn: concentration that inhibits the pathogen or its effect by n%. Lines come from different laboratories, so protocols vary. Blank or dashed fields: not listed here.

smiles | cell line | strain or isolate | mutations | value
Nc1ncnc2c1ncn2/C=C1/C[C@H]1CO | MT-4 |  |  | 13 µM
CC(C)(C)NC(=O)[C@@H]1CN(Cc2cccnc2)CCN1C[C@@H](O)C[C@@H](Cc1ccccc1)C(=O)N[C@H]1c2ccccc2C[C@H]1O |  | pNL4-3 luciferase reporter |  | 0.0141 µM
COc1cc(CN2C(=O)N(Cc3cccc(C(=O)Nc4ccc(C)cn4)c3)[C@H](Cc3ccccc3)[C@H](O)[C@@H](O)[C@H]2Cc2ccccc2)cc(OC)c1 | MT-2 | RF |  | <0.2817 µM
CC(C)=CCN1Cc2cc(Cl)cc3[nH]c(=O)n(c23)C[C@@H]1C | MT-4 | IIIB |  | 0.18 µM
Nc1cccc(CN2C(=O)N(Cc3cccc(N)c3)[C@H](Cc3ccccc3)[C@H](O)[C@@H](O)[C@H]2Cc2ccccc2)c1 | MT-2 | RF |  | <0.125 µM
O=C1N(Cc2ccccc2)[C@H](Cc2ccc3ccccc3c2)[C@H](O)[C@@H](O)[C@@H](Cc2ccc3ccccc3c2)N1Cc1ccccc1 | MT-2 | RF |  | <3.2 µM
O=C(Nc1ccccn1)c1cccc(CN2C(=O)N(Cc3cccc(C(=O)Nc4ccccn4)c3)[C@H](Cc3ccccc3)[C@H](O)[C@@H](O)[C@H]2Cc2ccccc2)c1 | MT-2 | RF |  | <0.0028 µM
Nc1cccc(CN2C(=O)N(Cc3cccc(N)c3)[C@H](Cc3ccc4c(c3)CCO4)[C@H](O)[C@@H](O)[C@H]2Cc2ccc3c(c2)CCO3)c1 | MT-2 | RF |  | <0.0306 µM
Cc1cn([C@H]2C[C@H](N=[N+]=[N-])[C@@H](CO)O2)c(=O)[nH]c1=O | PBMC |  |  | 0.0024 µM
CO[C@H]1O[C@@H](n2ccc(=O)[nH]c2=O)C[C@@H]1N=[N+]=[N-] | PBMC |  |  | 0.32 µM
O=C(N[C@H]1c2ccccc2C[C@H]1O)[C@H](Cc1ccccc1)C[C@H](O)CN1C(=O)[C@@H](Cc2cccnc2)C[C@@H]1Cc1ccccc1 | MT-4 + MT4 |  |  | 0.21 µM
Nc1cccc(CN2C(=O)N(Cc3cccc(C(=O)Nc4cnccn4)c3)[C@H](Cc3ccccc3)[C@H](O)[C@@H](O)[C@H]2Cc2ccccc2)c1 | MT-2 | RF |  | <0.0202 µM
CC(C)(C)NC(=O)[C@@H]1CN(Cc2cccnc2)CCN1C[C@@H](O)C[C@@H](Cc1ccccc1)C(=O)N[C@H]1c2ccccc2C[C@H]1O | CEM + CEM-SS | IIIB |  | <0.027 µM
Nc1ncnc2c1ncn2CCOCP(=O)(O)O | MT-4 |  |  | >10 µM
COc1cc(CN2C(=O)N(Cc3cccc(C(=O)Nc4cccc(C)n4)c3)[C@H](Cc3ccccc3)[C@H](O)[C@@H](O)[C@H]2Cc2ccccc2)cc(OC)c1 | MT-2 | RF |  | <0.2817 µM
Nc1ncnc2c1ncn2C=C1CC1CO | CEM + CEM-SS |  |  | 17 µM
Cc1ccc(NC(=O)c2cccc(CN3C(=O)N(Cc4cccc(C(=O)Nc5ccc(C)cn5)c4)[C@H](Cc4ccccc4)[C@H](O)[C@@H](O)[C@H]3Cc3ccccc3)c2)nc1 | MT-2 | RF |  | <0.0031 µM
CC[C@]1(c2ccccc2)Oc2cccnc2-n2cccc2C1=O | C8166 | IIIB |  | 0.56 µM
Cc1cn([C@@H]2O[C@H](CO)[C@@H](N=[N+]=[N-])[C@H]2O)c(=O)[nH]c1=O | PBMC |  |  | >100 µM
CC(=O)c1cccc(CN2C(=O)N(Cc3cccc(C(C)=O)c3)[C@H](Cc3ccc4c(c3)CCO4)[C@H](O)[C@@H](O)[C@H]2Cc2ccc3c(c2)CCO3)c1 | MT-2 | RF |  | <0.01 µM
COc1nc(=O)n([C@H]2C=C[C@@H](CO)O2)cc1C | C8166 |  |  | >50 µM
Cc1cn([C@H]2C[C@H](N=[N+]=[N-])[C@@H](CO)O2)c(=O)[nH]c1=O | PBMC |  |  | 0.004 µM
CC(=O)c1cc(CN2C(=O)N(Cc3ccc(F)c(C(C)=O)c3)[C@H](Cc3ccc4c(c3)OCCO4)[C@H](O)[C@@H](O)[C@H]2Cc2ccc3c(c2)OCCO3)ccc1F | MT-2 | RF |  | <0.084 µM
Cc1ccnc2c1NC(=O)c1cccnc1N2C1CC1 | MT-4 |  | RT-M41L T215Y A98G | <3 µM
O=C(N[C@H]1c2ccccc2C[C@H]1O)[C@H](Cc1ccccc1)C[C@H](O)CN1C(=O)[C@@H](Cc2ccccc2)C[C@@H]1Cc1ccccc1 | MT-4 + MT4 |  |  | 0.32 µM
[N-]=[N+]=NC1=C[C@H](n2ccc(N)nc2=O)O[C@@H]1CO | PBMC |  |  | 44.9 µM
CCCC1(CCc2ccccc2)CC(O)=C(C(c2cccc(NS(=O)(=O)c3cn(C)cn3)c2)C(C)(C)C)C(=O)O1 | H9 | IIIB |  | 0.5 µM
Nc1ccn([C@H]2CO[C@@H](CO)O2)c(=O)n1 | PBMC |  |  | 0.016 µM
CCCCC#CCSc1ccccc1OC(C)=O | MT-2 | 41+215Y AZT-resistant (RT-M41L T215F) | RT-M41L T215F | 2.1 µM
Nc1nc(=O)n([C@H]2CS[C@@H](CO)O2)cc1F | PBMC | LAI |  | 0.84 µM
CCCC1(CCc2ccccc2)CC(O)=C(C(c2cccc(NS(=O)(=O)c3cn(C)cn3)c2)C2CC2)C(=O)O1 | H9 | IIIB |  | <1 µM
Nc1ncnc2c(CC3(CO)CCC3)c[nH]c12 | MT-4 |  |  | 87.3 µM
CCCC1(CCC)CC(O)=C(C(c2cccc(NS(=O)(=O)c3cn(C)cn3)c2)C2CC2)C(=O)O1 | H9 | IIIB |  | >1 µM
COc1cccc(CN2C(=O)N(Cc3cccc(C(=O)Nc4cccc(C)n4)c3)[C@H](Cc3ccccc3)[C@H](O)[C@@H](O)[C@H]2Cc2ccccc2)c1 | MT-2 | RF |  | <0.0427 µM
CNc1cccc(CN2C(=O)N(Cc3cccc(NC)c3)[C@H](Cc3ccc4c(c3)OCCO4)[C@H](O)[C@@H](O)[C@H]2Cc2ccc3c(c2)OCCO3)c1 | MT-2 | RF |  | <0.0087 µM
Nc1ccn([C@@H]2CC[C@H](CO)O2)c(=O)n1 | Macrophage | BaL |  | 0.003 µM
CC(C)(C)C(=O)SCCOP(=O)(OCCSC(=O)C(C)(C)C)OCC1(Cc2c[nH]c3c(N)ncnc23)CCC1 | MT-4 |  |  | 26.5 µM
O=C1N(Cc2ccc3ccccc3c2)[C@H](Cc2ccccc2)[C@H](O)[C@@H](O)[C@@H](Cc2ccccc2)N1Cc1ccc2ccccc2c1 | MT-2 | RF |  | <3.9 µM

2 of the rows above, restated:

smiles	cell line	strain or isolate	mutations	value
Nc1ncnc2c1ncn2CCOCP(=O)(O)O	MT-4			>10 µM
CCCCC#CCSc1ccccc1OC(C)=O	MT-2	41+215Y AZT-resistant (RT-M41L T215F)	RT-M41L T215F	2.1 µM